What all share (assay): protein ELISA
Assay [1] concerns the target T1, SARS-CoV-2 S Omicron BA.4/BA.5 (ectodomain) (SARS-CoV-2 Omicron BA.4/BA.5).
T1 construct: extracellular domain

In assay [2] the target is T2, SARS-CoV-2 S Omicron BA.1 (ectodomain) (SARS-CoV-2 Omicron BA.1).
T2 construct: extracellular domain

Assay [3] deals with T3, SARS-CoV-2 SD1-RBD Gamma (SARS-CoV-2 Gamma).
T3 construct: domain: SD1-RBD

Assay [4] has as its target T4, SARS-CoV-2 SD1-RBD Beta (SARS-CoV-2 Beta).
T4 construct: domain: SD1-RBD

The target of assay [5] is T5, SARS-CoV-2 SD1-RBD Omicron BA.5.9 (SARS-CoV-2 Omicron BA.5.9).
T5 construct: domain: SD1-RBD

Assay [6] addresses T6, SARS-CoV-2 SD1-RBD Omicron BA.2 (SARS-CoV-2 Omicron BA.2).
T6 construct: domain: SD1-RBD

Assay [7] has as its target T7, SARS-CoV-2 SD1-RBD Delta (SARS-CoV-2 Delta).
T7 construct: domain: SD1-RBD

Assay [8] addresses T8, SARS-CoV-2 SD1-RBD Omicron BA.4.6 (SARS-CoV-2 Omicron BA.4.6).
T8 construct: domain: SD1-RBD

The target in assay [9] is T9, SARS-CoV-2 S Delta (ectodomain) (SARS-CoV-2 Delta).
T9 construct: extracellular domain

Assay [10] has as its target T10, SARS-CoV-2 SD1-RBD Omicron BA.4.7 (SARS-CoV-2 Omicron BA.4.7).
T10 construct: domain: SD1-RBD

For assay [11], the target named is T11, SARS-CoV-2 SD1-RBD Omicron BA.2.75.2 (SARS-CoV-2 Omicron BA.2.75.2).
T11 construct: domain: SD1-RBD

Positions count from the first letter of the chain named.

B1: rbd.031 (antibody, V domains shown)
VH: EVQLVESGGGVVQPGRSLRLSCAASGFTFKTYGMHWVRQAPGKGLEWVAVISYEGSNEYYAESVKGRFTISRDNSKNTLYLHMNSLRAEDTAVYYCAKGEYYYHSSTYYYLDYWGRGTLVTVSS
VL: DIQMTQSPSTLSASVGDRVTITCRASQSISSWLAWYQQKPGKAPKVLIYDASSLQSGVPLRFSGSGSGTEFTLTISSLQPDDFATYYCQQYDTYWTFGQGTKVEIK
As usually defined, the EC50 is the midpoint of the concentration-response curve. A high value points to a need for much substance. Consider B1, for which the EC50 turned out to be 0.058 µg/mL in [1]; 2.01 µg/mL in [2]; 0.0174 µg/mL in [3]; 0.0209 µg/mL in [4]; 0.0276 µg/mL in assay [5]; 0.0143 µg/mL in assay [6]. In addition, the EC50 came out at 0.0149 µg/mL in assay [7]; 0.033 µg/mL in assay [8]; 0.0208 µg/mL in [9]; 0.0316 µg/mL in assay [10]; 0.0522 µg/mL in assay [11].

B2: sd1.040 (antibody, V domains shown)
VH: QVQLVQSGAEVKKPGASVKVSCKASGYTFTSFYIHWVRQAPGQGLEWMGIIDPSGGSTSYPQKFQGRVTMTRDTSTSTVYMDLSSLRSEDTAVYYCTRDGSAGDNSWFDPWGQGTLVTVSS
VL: DIVMTQSPDSLAVSLGERATINCKSSRNVLYSSNNKNYLAWYQQKPGQPPKLLIYWASARESGVPDRFSGSGSGTDFTLTISSLQAEDVAVYYCQQYYNTPYTFGQGTKLEIK
With B2, the EC50 is 0.0234 µg/mL in assay [1]; 0.0316 µg/mL in assay [2]; 0.0191 µg/mL in assay [3]; 0.0203 µg/mL in assay [4]; 0.0273 µg/mL in [5]; 0.0153 µg/mL in assay [6]. Further, the EC50 in assay [7] was 0.0158 µg/mL; in assay [8], 0.038 µg/mL; in assay [9], 0.0178 µg/mL; in assay [10], 0.0357 µg/mL; in [11] it was 0.0272 µg/mL.

B3: sd1.108 (antibody, V domains shown)
VH: QVQLVQSGAEVKKPGASVKVSCKASGYTFTSYYIHWVRQTPGQGLEWMGIINPRGGSTSYPQKFQGRVSMTRDTSTSTVFMELSSLRSDDTAVYYCAREHREDTAMDNQPSDSWGQGTLVTVSS
VL: B2 VL with A12S, N28S, L30F, N37S, A59T, P65R
As for B3, the EC50 in [1] came to 0.0217 µg/mL; in assay [2], 0.0382 µg/mL; in assay [3], 0.0183 µg/mL; in assay [4], 0.0265 µg/mL; in assay [5], 0.0287 µg/mL; in [6], 0.0201 µg/mL. Also, the EC50 in assay [7] came out at 0.0241 µg/mL; in [8], 0.0308 µg/mL; in assay [9] it was 0.0155 µg/mL; in assay [10], 0.0365 µg/mL; in assay [11] it was 0.0282 µg/mL.

B4: sd1.127 (antibody, V domains shown)
VH: EVQLVESGGALVKPGGSLTLSCVASGFTFSHAWMTWVRQAPGKGLEWVGRIKTKTEGGTIDYAAPLRGRFTISRDDSKNTLYLRMNSLKIEDTAKYYCTTHSSPDYWGQGTLVTVSS
VL: DIQMTQSPSSLSASIGDRVTITCRASQGIGNSLLWYQQKRGKVPKLLIYAASTLQSGVPSRFSGSGSGTDFTLTISSLQPEDVATYYCQRYNSAPLTFGGGTKVEIK
B4: the half-maximal effective concentration (EC50) in [1] worked out at 0.0107 µg/mL; in assay [2], 0.016 µg/mL; in [3], 0.00935 µg/mL; in assay [4], 0.0103 µg/mL; in [5], 0.0102 µg/mL; in [6], 0.00961 µg/mL. For the same molecule, the EC50 was 0.0124 µg/mL in [7]; 0.0131 µg/mL in assay [8]; 0.0127 µg/mL in assay [9]; 0.0129 µg/mL in assay [10]; 0.0104 µg/mL in [11].

B5: rbd.046 (antibody, V domains shown)
VH: EVQLVESGGGVVQPGRSLRLSCAASGFTFSHYGMHWVRQAPGKGLEWVAVISYDGSNKYYADSVKGRFTISRDNSKSTLYLQMNSLRAEDTAVYYCAKGEWYYDIFTGYYPYWGQGTLVTVSS
VL: not shown
In the case of B5, the EC50 in assay [1] came to 0.577 µg/mL; in [2], 1.5 µg/mL; in assay [3], 0.023 µg/mL; in [4], 0.0398 µg/mL; in assay [5] it was 0.105 µg/mL; in assay [6], 0.0625 µg/mL. In addition, the EC50 in [7] amounted to 0.0235 µg/mL; in assay [8] it was 0.116 µg/mL; in assay [9] it was 0.058 µg/mL; in assay [10] it was 0.144 µg/mL; in assay [11], 0.377 µg/mL.

B6: sd1.151 (antibody, V domains shown)
VH: EVQLVESGGGLVKPGGSLRLSCAVSGFTFSNAWMTWVRQAPGKGLEWVGRIKTKPEGGTTDYATPVKGRFTISRDDSIDTLYLQMNSLKTEDTAVYYCSTFSSPDHWGQGTLVTVSS
VL: DIVMTQSPDSLAVSLGERATINCKSSQSVFHSSNNKNYLIWYQHKPGQPPKLLISWASTRESGVPDRFSGSGSGTDFTLTISSLQAEDVAVYYCHQYYSTPFTFGPGTKVDIK
Consider B6, for which the EC50 was found to be 0.0199 µg/mL in [1]; 0.0372 µg/mL in assay [2]; 0.0198 µg/mL in [3]; 0.0235 µg/mL in assay [4]; 0.0188 µg/mL in assay [5]; 0.0263 µg/mL in assay [6]. The EC50 in assay [7] came out at 0.0323 µg/mL; in assay [8], 0.0242 µg/mL; in assay [9], 0.0202 µg/mL; in [10], 0.0227 µg/mL; in [11], 0.0168 µg/mL.

B7: sd1.150 (antibody, V domains shown)
V domain 1: EVQLVESGGGVVQPGRSLRLSCAASGFTFSSHGMHWVRQAPGRGLEWVAVISFDGRNKFYVDSVKGRFTISRDNSKNTLYLHMNSLRAADTAVYYCAKDHDPDGSGSYFSNWFDAWGQGTLVTVSS
V domain 2: SYELTQPPSVSVSPGQTASITCSGDKLGDKYAYWYRQKPGQSPVVVIYQDNKRPSGIPERFSGSNSGNTATLTISGTQAMDEADYYCQAWDTYSGVFGTGTQVTVL
Consider B7, for which the EC50 came to 0.0685 µg/mL in assay [1]; 0.055 µg/mL in [2]; 0.0844 µg/mL in assay [3]; 0.163 µg/mL in assay [4]; 0.945 µg/mL in assay [5]; 0.234 µg/mL in assay [6]. In addition, the 50% effective concentration (EC50) amounted to 0.0522 µg/mL in assay [7]; 0.676 µg/mL in [8]; 0.0255 µg/mL in assay [9]; 1.3 µg/mL in [10]; 1.07 µg/mL in assay [11].

Values taken from patent publication US20250382354A1 (INSTITUTE FOR RESEARCH IN BIOMEDICINE IRB, published 2025).
